Compound potency records, mixed from different reports. Data source: NIAID ChemDB in PubChem.

All rows: whole-cell or culture tests; agent: HIV-1; method: p24; measure: EC50

ECn: concentration that inhibits the pathogen or its effect by n%. Neighbouring rows are from separate reports. Blank or dashed fields: not listed here.

SMILES	strain or isolate	cells	changes	conditions	result
CCCCCN1CC[C@@H](c2ccc(F)cc2)[C@H](COc2ccc3c(c2)OCCO3)C1	IIIB	MOLT-3	-	-	>4 µg/mL
O=C(N[C@H]1c2ccccc2OC[C@H]1O)[C@H](Cc1cc2cnccc2s1)C[C@H](O)CN1CCN(Cc2ccc(-c3ccc(Cl)cc3)o2)C[C@H]1C(=O)NCC(F)(F)F	4X (PR M46I L63P V82T I84V)	MT-4	PR-M46I L63P V82T I84V	-	<0.0156 µM
CCCCCN1CC[C@H](c2ccc(F)cc2)[C@@H](COc2ccc3c(c2)OCCO3)C1	IIIB	MOLT-3	-	-	>4 µg/mL
Nc1nc2c(ncn2[C@H]2CO[C@@H](CO)O2)c(=O)[nH]1	LAI	PBMC	-	-	0.25 µM
COc1cc2c(c(OC)c1O)-c1ccc(SC)c(=O)cc1[C@@H](NC(C)=O)CC2	IIIB	H9	-	-	0.047 µM
Cc1ccncc1-c1ccc(C[C@H](C[C@H](O)CN2CCN(Cc3ncc(-c4ccc(Cl)cc4)o3)C[C@H]2C(=O)NCC(F)(F)F)C(=O)N[C@H]2c3ccccc3OC[C@H]2O)o1	4X (PR M46I L63P V82T I84V)	MT-4	PR-M46I L63P V82T I84V	-	<0.0625 µM
S=C(NCCc1ccccn1)Nc1ccc(Br)cn1	IIIB	PBMC	-	-	0.007 µM
CN1CC[C@@H](c2ccccc2)[C@H](COc2ccc3c(c2)OCCO3)C1	IIIB	MOLT-3	-	-	>0.8 µg/mL
CC(C)(C)OC(=O)N[C@@H](Cc1ccccc1)[C@@H](O)C[C@@H](Cc1ccc(OCCN2CCOCC2)cc1)C(=O)N[C@H]1c2ccccc2C[C@H]1O	IIIB	PBL	-	-	<0.012 µM
CC(C)(C)OC(=O)N[C@@H](Cc1ccccc1)[C@@H](O)C[C@@H](Cc1ccccc1)C(=O)N[C@H]1c2ccccc2C[C@H]1O	IIIB	MT-4	-	-	<0.4 µM
COc1ccc(OC[C@H]2CNCC[C@@H]2c2ccccc2)cc1	IIIB	MOLT-3	-	-	>4 µg/mL
CC(C)(C)NC(=O)[C@@H]1C[C@@H]2CCCC[C@@H]2CN1C[C@@H](O)[C@H](Cc1ccccc1)NC(=O)[C@H](CC(N)=O)NC(=O)c1ccc2ccccc2n1	IIIB/LAI	HUT-78/IIIB/LAI + HUT 78	-	-	0.6 µM
O=C1CN=C(c2ccc[nH]2)c2cc(Cl)ccc2N1	BAL R5	U87.CD4-CCR5+ + U87.CD4	-	-	1.8 µg/mL
CN1CCN(CCOc2ccc(C[C@H](C[C@H](O)[C@H](Cc3ccccc3)NC(=O)OC(C)(C)C)C(=O)N[C@H]3c4ccccc4C[C@H]3O)cc2)CC1	IIIB	H9	-	-	<0.1 µM
Cc1cn([C@H]2C[C@H](N=[N+]=[N-])[C@@H](CO)O2)c(=O)[nH]c1=O	IIIB	PBMC	-	16 d	0.125 µM
Nc1ncnc2c1ncn2CCOCP(=O)(O)O	RF	C8166	-	-	1.5 µM
S=C(NCCc1cccs1)Nc1ccc(Br)cn1	G704-2 Clinical isolate NRTI-resistant	PBMC	RT-M41L D67N K70R L210W T215Y	-	0.017 µM
NC1=Nc2c(ncn2CCC/C=C/P(=O)(O)O)C(=O)C1	RF	C8166	-	-	12 µM
Cc1ccncc1-c1ccc(C[C@H](C[C@H](O)CN2CCN(Cc3ccc(-c4ccc(Cl)cc4)s3)C[C@H]2C(=O)NCC(F)(F)F)C(=O)N[C@H]2c3ccccc3OC[C@H]2O)o1	4X (PR M46I L63P V82T I84V)	MT-4	PR-M46I L63P V82T I84V	-	<0.0156 µM
CCCCC[C@H](O)/C=C/[C@H]1C(=O)C=C[C@@H]1C/C=C\CCCC(=O)O	IIIB	CEM + CEM-SS	-	-	1 µg/mL
CN(C)c1cccc2c(S(=O)(=O)N3CCSC3c3cccnc3)cccc12	IIIB	PBMC	-	16 d	10.2 µM
C[C@H](Cn1cnc2c(N)ncnc21)OCP(=O)(O)O	-	PBMC	RT-K65R	-	6.37 µM
CC(C)(C)NC(=O)[C@@H]1CN(Cc2cc3ccsc3s2)CCN1C[C@@H](O)C[C@@H](Cc1ccncc1)C(=O)N[C@H]1c2ccccc2C[C@H]1O	IIIB	H9	-	-	<0.006 µM
Cc1ccnc2c1NC(=O)c1cccnc1N2C1CC1	NRTI resistant (RT L74V M41L V106A T215Y) MDR	PBMC	RT-L74V M41L V106A T215Y	-	5 µM
CSCSc1cc(Cc2cc(C)cc(C)c2)c(C(C)C)c(=O)[nH]1	IIIB	PBMC	-	-	0.02 µM
CC(C)(C)NC(=O)[C@@H]1CN(Cc2cc3sccc3s2)CCN1C[C@@H](O)C[C@@H](Cc1cccnc1)C(=O)N[C@H]1c2ccccc2C[C@H]1O	IIIB	H9	-	-	<0.006 µM
CC(C)(C)OC(=O)N[C@@H](Cc1ccccc1)[C@@H](O)C[C@@H](Cc1ccc(OCC(=O)N2CCOCC2)cc1)C(=O)N[C@H]1c2ccccc2C[C@H]1O	IIIB	H9	-	-	<0.05 µM
CC(C)(C)NC(=O)[C@@H]1CN(Cc2c(F)cccc2F)CCN1C[C@@H](O)C[C@@H](Cc1ccncc1)C(=O)N[C@H]1c2ccccc2C[C@H]1O	IIIB	H9	-	-	<0.025 µM
C/C(=C(/CCO)SSCC1CCCO1)N(C=O)Cc1cnc(C)nc1N	RF	U-937/HIV-1(RF) + U-937	-	-	<50 µM
O=C(N[C@H]1c2ccccc2OC[C@H]1O)[C@H](Cc1cc2cnccc2s1)C[C@H](O)CN1CCN(Cc2csc(-c3ccc(C(F)(F)F)cc3)n2)C[C@H]1C(=O)NCC(F)(F)F	NL4-3	MT-4	-	-	<0.026 µM
Cc1cn([C@H]2C[C@H](N=[N+]=[N-])[C@@H](CO)O2)c(=O)[nH]c1=O	IIIB	MOLT-4	-	-	1 µM
Cc1cn([C@@H]2C=C[C@H](CO)O2)c(=O)[nH]c1=O	LAV	CEM	-	-	>100 µM
Cc1cn([C@H]2C[C@H](N=[N+]=[N-])[C@@H](CO)O2)c(=O)[nH]c1=O	RF	PBMC	-	-	0.002 µM
N[C@H]1CCc2cc(O)c(O)c(O)c2-c2ccc(O)c(=O)cc21	IIIB	H9	-	-	30 µM
CCN(c1ncccc1NC(C)(C)C)C1CCN(C(=O)c2cc3cc(NS(C)(=O)=O)ccc3[nH]2)CC1	IIIB	MT-4	-	-	<0.004 µM
O=C(O)P(=O)(O)O	7076 CLADE D CLADE D	PBMC	-	-	46 µM
CC(C)(C)NC(=O)[C@@H]1CN(Cc2cc(Br)cs2)CCN1C[C@@H](O)C[C@@H](Cc1ccncc1)C(=O)N[C@H]1c2ccccc2C[C@H]1O	IIIB	H9	-	-	<0.012 µM
CC(C)(C)OC(=O)N[C@@H](Cc1ccccc1)[C@@H](O)C[C@@H](Cc1ccc(OCC[N+]2([O-])CCOCC2)cc1)C(=O)N[C@H]1c2ccccc2C[C@H]1O	IIIB	H9	-	-	<0.1 µM
OCCN1CCN(CC/C=C2\c3ccccc3Sc3ccc(C(F)(F)F)cc32)CC1	IIIB	MOLT-3	-	-	<10 µg/mL
COc1cc2c(c(OC)c1OC)-c1ccc(N(C)C)c(=O)cc1[C@@H](N)CC2	IIIB	H9	-	-	0.94 µM
Cc1c(N)nc([C@H](CC(N)=O)NC[C@H](N)C(N)=O)nc1C(=O)N[C@H](C(=O)N[C@H](C)[C@@H](O)[C@H](C)C(=O)N[C@H](C(=O)NCCc1nc(-c2nc(C(=O)NCCC[S+](C)C)cs2)cs1)[C@@H](C)O)C(O[C@@H]1O[C@@H](CO)[C@@H](O)[C@H](O)[C@@H]1O[C@H]1O[C@H](CO)[C@@H](O)[C@H](OC(N)=O)[C@@H]1O)c1cnc[nH]1	BaL	PBL	-	-	0.64 µM
O=C(O)c1cc(O)cc(O)c1N=Nc1ccc(/C=C/c2ccc(N=Nc3c(O)cc(O)cc3C(=O)O)cc2S(=O)(=O)O)c(S(=O)(=O)O)c1	IIIB	Macrophage	-	-	0.3 µg/mL
Oc1ccc(/C=C/c2cc(O)cc(O)c2)cc1	SF162	MDM	-	-	~10 µM
Cc1cccc(C)c1CNC(=O)[C@H]1N(C(=O)[C@@H](O)C[C@@H](Cc2ccccc2)C(=O)N[C@H]2c3ccccc3C[C@H]2O)CSC1(C)C	-	MT-4	-	-	<0.031 µM
Cc1ccncc1-c1ccc(C[C@H](C[C@H](O)CN2CCN(Cc3csc(-c4ccc(F)cc4)n3)C[C@H]2C(=O)NCC(F)(F)F)C(=O)N[C@H]2c3ccccc3OC[C@H]2O)o1	4X (PR M46I L63P V82T I84V)	MT-4	PR-M46I L63P V82T I84V	-	<0.0156 µM

For reference, 3 entries again:

SMILES | strain or isolate | cells | changes | conditions | result
CC(C)(C)NC(=O)[C@@H]1CN(Cc2cc3ccsc3s2)CCN1C[C@@H](O)C[C@@H](Cc1ccncc1)C(=O)N[C@H]1c2ccccc2C[C@H]1O | IIIB | H9 | - | - | <0.006 µM
Cc1ccncc1-c1ccc(C[C@H](C[C@H](O)CN2CCN(Cc3ccc(-c4ccc(Cl)cc4)s3)C[C@H]2C(=O)NCC(F)(F)F)C(=O)N[C@H]2c3ccccc3OC[C@H]2O)o1 | 4X (PR M46I L63P V82T I84V) | MT-4 | PR-M46I L63P V82T I84V | - | <0.0156 µM
CC(C)(C)OC(=O)N[C@@H](Cc1ccccc1)[C@@H](O)C[C@@H](Cc1ccc(OCC(=O)N2CCOCC2)cc1)C(=O)N[C@H]1c2ccccc2C[C@H]1O | IIIB | H9 | - | - | <0.05 µM